Increase in RgIA potency data for one molecule are collected here from patent US20160122388A1, “Conotoxin peptides, pharmaceutical compositions and uses thereof” (published 2016).

This test deals with human α9α10 nAChR with Ile56 replaced by Thr in the α9 subunit (human), Q9UGM1. Nature of the test: cell-based or functional assay.

B1: α-Conotoxin peptide RgIA (peptide)
peptide: GCCSDPRCRYRCR
modifications: not checked
Regarding B1, the increase in RgIA potency turned out to be 2 log.
